Values of other authors, collected in patent US20120283249A1, “Novel compounds which have a protective activity with respect to the action of toxins and of viruses with an intracellular mode of action” (published 2012).

How the values were obtained:
ricin = ricin (Ricinus communis, UniProt P02879); conditions: ricin inhibitors
[1] = molecular target: ricin A chain (RTA) N-glycosylase (Ricinus communis, UniProt P02879); conditions: read-out: inhibition constant, N-glycosylase activity; enzymatic test

SMILES	IC50 (ricin)	Ki [1]
OC[C@H]1O[C@@H](O[C@H]2[C@H](O)[C@@H](O)C(O)O[C@@H]2CO)[C@H](O)[C@@H](O)[C@H]1O (some centres unmarked)	740 µM	
Nc1nc2ncc(CNc3ccc(C(=O)O)cc3)nc2c(=O)[nH]1		600 µM
